Data: PubChem BioAssay AID493005 (National Center for Advancing Translational Sciences (NCATS), 2010)
The list shows a part of the results, in another mix than the full data. The source made the active and inactive calls. Calls follow the shape of the dose curve; as a rule, active = well fitted inhibition curve with a large enough effect in the main read-out, with a control signal flat (not every such curve was filed as active); inconclusive = small, poorly fitted or top-dose-only effect, or effect the other way, or a change in a side signal; inactive = no such curve, though single readings can be large or run the other way.
Also: % of control where 0% means no effect.

Sequences of proteins named here, by UniProt entry; tags and fusion partners are left off.
UniProt Q99816, whole entry: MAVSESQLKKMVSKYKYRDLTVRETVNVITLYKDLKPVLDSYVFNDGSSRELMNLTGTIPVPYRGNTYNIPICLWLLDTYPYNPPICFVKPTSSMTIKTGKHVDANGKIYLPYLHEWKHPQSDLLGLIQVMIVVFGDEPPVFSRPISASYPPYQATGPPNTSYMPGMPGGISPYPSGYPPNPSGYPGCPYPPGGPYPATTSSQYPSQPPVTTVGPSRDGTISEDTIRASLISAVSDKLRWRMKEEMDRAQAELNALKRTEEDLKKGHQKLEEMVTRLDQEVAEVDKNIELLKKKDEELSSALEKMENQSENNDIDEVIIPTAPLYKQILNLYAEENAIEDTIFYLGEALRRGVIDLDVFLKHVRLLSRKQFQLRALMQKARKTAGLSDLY

The compounds below were run against Tumor susceptibility gene 101 protein (Homo sapiens) (UniProt Q99816) (assay: qHTS Assay for Iinhibitors of HIV-1 Budding by Blocking the Interaction of PTAP/TSG101). Details: Fluorescence polarization, FITC-PTAP peptide / Tsg101 binding; at 115 µM (top of the series).
Source text: NIH Molecular Libraries Probe Production Network [MLPCN] NIH Chemical Genomics Center [NCGC] MLPCN Grant: 1 R03 MH087464-01A1 PI Name: Dr. Eric Freed, NCI NCGC Assay Overview: Stages of the HIV-1 replication cycle, specifically virus assembly and release, provide underexploited targets for the development of novel antiviral inhibitors. The late stages of HIV-1 replication are mediated by the Gag precursor protein, Pr55Gag. Expression of Pr55Gag is both necessary and sufficient for the production of virus-like particles from Gag-expressing cells. The Gag protein hijacks key host proteins involved in endocytic machinery of the host cell to promote endosomal processing and viral budding. The budding process requires a direct interaction between a […] (PTAP) motif in the p6 domain of Gag and the cellular endosomal sorting protein known as Tsg101. In this way, the Gag PTAP motif promotes the host cells to recruit viral particles to the plasma membrane where the new viral particles are released, effectively turning the host cells into viral factories. A fluorescence anisotropy assay has been developed to quantitatively measure the PTAP-Tsg101 interaction which can be used to screen for inhibitors of this interaction.
NCGC Assay Protocol Summary: Two uL of the Tsg101 binding domain in buffer (10 mM HEPES pH 7.5; 0.15 M NaCl, 0.01% Tween 20; 3 mM EDTA;0.1 mM TCEP) was dispensed into Greiner black MB 1536-well plates (final concentration 10 uM). Then, 23 nL of compounds or DMSO were delivered to each well using a pin tool. Finally, 2 uL of a FITC-labeled peptide containing the PTAP motif (1) in the same buffer was dispensed (50 nM final concentration) and the binding was allowed to proceed for 20 min. at r.t. Fluorescent polarization was determined using FITC excitation and polarized emission filters on a Perkin Elmer Viewlux. Keywords: Tsg101, PTAP, Gag, HIV, fluorescent polarization, MLSMR, MLPCN, NIH Roadmap, qHTS, NCGC
For `CCN(CC)CCCOC(=O)C(O)(c1ccccc1)c1ccccc1`, the activity change, negative = inhibition was inactive: -1.61%. For `COc1ccccc1OP(C)(=O)Nc1cc(Cl)ccc1C` (stereo not given), the activity change, negative = inhibition was inactive: -5.68%. `COc1ccc(OP(C)(=O)Nc2cccc(F)c2)cc1` (stereo not given) was tested, and the activity change, negative = inhibition was inactive: -1.68%. For `Cc1cc(C)cc(OP(C)(N)=O)c1` (stereo not given), the activity change, negative = inhibition was inactive: -1.26%. In the case of `CCOC(=O)c1ccc(NP(C)(=O)Oc2ccccc2)cc1` (stereo not given), the activity change, negative = inhibition is reported as inactive: -2.05%. With `COc1ccccc1OP(C)(=O)Nc1ccc(C)cc1` (stereo not given) the activity change, negative = inhibition was inactive: -2.26%. For `Cc1ccc(NP(C)(=O)Oc2ccccc2)c(C)c1` (stereo not given), the activity change, negative = inhibition was inactive: -1.28%. `Cc1cccc(C)c1OP(C)(N)=O` (stereo not given) was tested, and the activity change, negative = inhibition was inactive: -3.81%. In the case of `O=[N+]([O-])c1ccc2c(c1)C=Nc1ccccc1O2`, the activity change, negative = inhibition is reported as inactive: -5.41%. `O=[N+]([O-])c1cc([N+](=O)[O-])c(Nc2cccnc2)c([N+](=O)[O-])c1` was tested, and the activity change, negative = inhibition was inactive: -6.07%. In the case of `COc1ccccc1OP(C)(=O)Nc1ccccc1` (stereo not given), the activity change, negative = inhibition is reported as inactive: -2.35%. For `CP(=O)(Nc1ccccc1Br)Oc1ccccc1` (stereo not given), the activity change, negative = inhibition was inactive: -3.97%. For `CP(=S)(Nn1cnnc1)Oc1ccccc1` (stereo not given), the activity change, negative = inhibition was inactive: -1.03%. For `CP(=O)(Nc1ccccn1)Oc1ccc(Cl)cc1` (stereo not given), the activity change, negative = inhibition was inactive: -14.1%. With `CCOP(C)(=S)SCC(=O)NC(C)C(=O)O` (stereo not given) the activity change, negative = inhibition was inactive: -3.8%. For `CCOC(=O)c1ccc(NP(C)(=O)Oc2ccc(OC)cc2)cc1` (stereo not given), the activity change, negative = inhibition was inactive: -2.12%. In the case of `O=[N+]([O-])c1cc([N+](=O)[O-])c(O)c([N+](=O)[O-])c1.c1ccc(Oc2ccncc2)cc1`, the activity change, negative = inhibition is reported as inactive: -6.54%. For `CCc1ccc(OP(C)(=O)N2CCN(c3ccc([N+](=O)[O-])cc3)CC2)cc1` (stereo not given), the activity change, negative = inhibition was inactive: -2.06%. With `CP(=O)(NC(=O)Nc1ccccc1)Oc1ccccc1` (stereo not given) the activity change, negative = inhibition was inactive: 0.71%. `Cc1cc(C)cc(OP(C)(=O)Nc2ccc(SC(F)(F)F)cc2)c1` (stereo not given) was tested, and the activity change, negative = inhibition was inactive: -2.23%. For `Cc1cccc(C)c1OP(C)(=O)Nc1ccc(SC(F)(F)F)cc1` (stereo not given), the activity change, negative = inhibition was inactive: -5.82%. `CP(=O)(Nc1ccc(SC(F)(F)F)cc1)Oc1ccc(Cl)cc1` (stereo not given) was tested, and the activity change, negative = inhibition was inactive: -10.5%. For `CP(=O)(Oc1ccccc1)OC(c1ccccc1)C(F)(F)F` (stereo not given), the activity change, negative = inhibition was inactive: 0.947%. With `Cc1nc2ccc3ccccc3c2s1.O=[N+]([O-])c1cc([N+](=O)[O-])c(O)c([N+](=O)[O-])c1` the activity change, negative = inhibition was inactive: -14.9%. `O=[N+]([O-])c1cc([N+](=O)[O-])c(-c2cnn(-c3ccccc3)c2)c([N+](=O)[O-])c1` was tested, and the activity change, negative = inhibition was inactive: 0.226%. `O=[N+]([O-])c1cc([N+](=O)[O-])c(-n2nnc3ccccc32)c([N+](=O)[O-])c1` was tested, and the activity change, negative = inhibition was inactive: -2.97%. `CP(=O)(Nc1ccc(SC(F)(F)F)cc1)Oc1ccccc1` (stereo not given) was tested, and the activity change, negative = inhibition was inactive: -7.56%. With `CCCOc1ccc(NP(C)(=O)Oc2ccc(Cl)cc2)cc1` (stereo not given) the activity change, negative = inhibition was inactive: -3.68%. With `COc1ccccc1OP(C)(=O)Nc1c(C)cccc1C` (stereo not given) the activity change, negative = inhibition was inactive: -5.48%. With `CN1CCCCC1COC(=O)C1(O)c2ccccc2CCc2ccccc21` (stereo not given) the activity change, negative = inhibition was inactive: -3.51%. `O=[N+]([O-])c1cc([N+](=O)[O-])c(Nc2nnnn2CCO)c([N+](=O)[O-])c1` was tested, and the activity change, negative = inhibition was inactive: -6.88%. `CC1=C2N=C(C=C3N=C(C(C)=C4[N-][C@@](C)([C@@H]5N=C1[C@](C)(CCC(=O)NC[C@@H](C)OP(=O)([O-])O[C@H]1[C@@H](O)[C@@H](n6cnc7cc(C)c(C)cc76)O[C@@H]1CO)[C@H]5CC(N)=O)[C@@](C)(CC(N)=O)[C@@H]4CCC(N)=O)[C@@](C)(CC(N)=O)[C@@H]3CCC(N)=O)C(C)(C)[C@@H]2CCC(N)=O.[C-]#N.[Co+3]` was tested, and the activity change, negative = inhibition was inactive: 0.487%. In the case of `CC1=NCCc2c1[nH]c1ccccc21.O=[N+]([O-])c1cc([N+](=O)[O-])c(O)c([N+](=O)[O-])c1`, the activity change, negative = inhibition is reported as inactive: -1.17%. For `CP(=O)(Nc1cccc(Br)c1)Oc1ccccc1` (stereo not given), the activity change, negative = inhibition was inactive: -4.99%. For `Cc1cc(C)cc(OP(C)(=O)Nc2ccccn2)c1` (stereo not given), the activity change, negative = inhibition was inactive: -6.28%. With `Cc1ccc(C)c(NP(C)(=O)Oc2ccccc2)c1` (stereo not given) the activity change, negative = inhibition was inactive: 0.112%. For `Cc1cc(C)cc(OP(C)(=O)Nc2ccc(C)cc2C)c1` (stereo not given), the activity change, negative = inhibition was inactive: -3.46%. `CCOC(=O)c1ccc(NP(C)(=O)Oc2cc(C)cc(C)c2)cc1` (stereo not given) was tested, and the activity change, negative = inhibition was inactive: -6.7%. For `COc1ccccc1OP(C)(=O)Nc1cccc(Br)c1` (stereo not given), the activity change, negative = inhibition was inactive: -5.2%. `O=C(OCCN1CCN(CCOCc2ccccc2)CC1)C(O)(c1ccccc1)c1ccccc1` was tested, and the activity change, negative = inhibition was inactive: -2.91%. For `CC(C)c1ccc(OP(C)(=O)Nc2ccc(SC(F)(F)F)cc2)cc1` (stereo not given), the activity change, negative = inhibition was inactive: 11.4%. For `CP(=O)(Nc1ccccc1F)Oc1ccccc1` (stereo not given), the activity change, negative = inhibition was inactive: -7.26%. With `CCCCCOc1ccc(NP(C)(=O)Oc2ccc(Cl)cc2Cl)cc1` (stereo not given) the activity change, negative = inhibition was inactive: -4.55%. In the case of `CP(=O)(Nc1ccccc1)Oc1ccc(F)cc1` (stereo not given), the activity change, negative = inhibition is reported as inactive: -10.5%. In the case of `CCN(CC)CCCOC(=O)C(O)(c1ccccc1)C1CCCCC1` (stereo not given), the activity change, negative = inhibition is reported as inactive: 0.148%. In the case of `Cc1c([N+](=O)[O-])cc([N+](=O)[O-])c(Br)c1[N+](=O)[O-]`, the activity change, negative = inhibition is reported as inactive: -7.19%. With `COc1ccc(OP(C)(=O)Nc2ccc(SC(F)(F)F)cc2)cc1` (stereo not given) the activity change, negative = inhibition was inactive: -2.1%. `CCOC(=O)c1ccc(NP(C)(=O)Oc2ccc(F)cc2)cc1` (stereo not given) was tested, and the activity change, negative = inhibition was inactive: -4.63%. For `Cc1c(C(c2ccc3c(c2)OCO3)c2c(C)n(C)n(-c3ccccc3)c2=O)c(=O)n(-c2ccccc2)n1C.O=[N+]([O-])c1cc([N+](=O)[O-])c(O)c([N+](=O)[O-])c1`, the activity change, negative = inhibition was inactive: 0.0439%. With `Cc1cc(-c2cccc3ccccc23)c(C)cn1.O=[N+]([O-])c1cc([N+](=O)[O-])c(O)c([N+](=O)[O-])c1` the activity change, negative = inhibition was inactive: -8.27%. With `O=[N+]([O-])c1ccc(OP2(=O)COCCO2)cc1` (stereo not given) the activity change, negative = inhibition was inactive: -7.04%. `COc1ccc(NP(C)(=O)Oc2ccccc2OC)cc1` (stereo not given) was tested, and the activity change, negative = inhibition was inactive: 0.035%. `CN(C)CCOC(=O)C(O)(c1ccccc1)C1CCCCC1` (stereo not given) was tested, and the activity change, negative = inhibition was inactive: -6.03%. In the case of `COc1ccc(OP(C)(=O)Nc2cccc(Br)c2)cc1` (stereo not given), the activity change, negative = inhibition is reported as inactive: -4.13%. For `Cc1ccccc1NP(C)(=O)Nc1ccccc1C`, the activity change, negative = inhibition was inactive: -2.09%.
